Measured values from several laboratories, pooled; numbers as filed in NIAID ChemDB.

All rows: whole-cell or culture tests; organism: Measles virus; endpoint: EC50

ECn: concentration that inhibits the pathogen or its effect by n%.

structure,cell line,strain,method,value
NC(=O)c1ncn([C@@H]2O[C@H](CO)[C@@H](O)[C@H]2O)c1O,VERO,Sugiyama,plaque count,1.9 µg/mL
CC[C@@H](C(C)C)[C@@H](O)[C@H](O)[C@@H](C)[C@H]1CC[C@H]2[C@@H]3COC(=O)C4C[C@H](O)[C@H](O)C[C@]4(C)[C@H]3CC[C@]12C,VERO,MV/Brazil/001/91,plaque count,8 µM
OCC1OC2OC3C(CO)OC(OC4C(CO)OC(OC5C(CO)OC(OC6C(CO)OC(OC7C(CO)OC(OC8C(CO)OC(OC9C(CO)OC(OC1C(O)C2O)C(O)C9O)C(O)C8O)C(O)C7O)C(O)C6O)C(O)C5O)C(O)C4O)C(O)C3O,VERO,Edmonston,plaque count,>2560 µM
O=c1cnn([C@@H]2O[C@H](CO)[C@@H](O)[C@H]2O)c(=O)[nH]1,VERO,Yamagata-1,plaque count,0.74 µg/mL
NC(=O)c1c[se]c([C@@H]2O[C@H](CO)[C@@H](O)[C@H]2O)n1,HeLa,Edmonston,cytopathic effect,2 µg/mL
CC[C@@H](C(C)C)[C@H](O)[C@@H](O)[C@@H](C)[C@H]1CC[C@H]2[C@@H]3CC(=O)[C@@]4(O)C[C@@H](Br)CC[C@]4(C)[C@H]3CC[C@]12C,VERO,MV/Brazil/001/91,plaque count,4 µM
Nc1ncnc2c1ncn2C[C@H](O)CO,VERO,Niigata-1,plaque count,>200 µg/mL
CC[C@H](/C=C/[C@@H](C)[C@H]1CC[C@H]2[C@@H]3CC(=O)[C@@]4(O)C[C@@H](O)CC[C@]4(C)[C@H]3CC[C@]12C)C(C)C,VERO,MV/Brazil/001/91,plaque count,585 µM
NC(=O)c1[nH]nc([C@@H]2O[C@H](CO)[C@@H](O)[C@H]2O)c1O,VERO,Sugiyama,plaque count,0.14 µg/mL
OC[C@H]1O[C@@H]2O[C@H]3[C@H](O)[C@@H](O)[C@@H](O[C@H]4[C@H](O)[C@@H](O)[C@@H](O[C@H]5[C@H](O)[C@@H](O)[C@@H](O[C@H]6[C@H](O)[C@@H](O)[C@@H](O[C@H]7[C@H](O)[C@@H](O)[C@@H](O[C@H]1[C@H](O)[C@H]2O)O[C@@H]7CO)O[C@@H]6CO)O[C@@H]5CO)O[C@@H]4CO)O[C@@H]3CO,VERO,Edmonston,plaque count,>2560 µM
CC[C@H](/C=C/[C@@H](C)[C@H]1CC[C@H]2[C@@H]3CC(=O)[C@@]4(O)C[C@@H](Br)CC[C@]4(C)[C@H]3CC[C@]12C)C(C)C,VERO,MV/Brazil/001/91,plaque count,5 µM
C#Cc1c(C(N)=O)ncn1[C@@H]1O[C@H](CO)[C@@H](O)[C@H]1O,VERO,Sugiyama,plaque count,0.69 µg/mL
CC[C@@H](C(C)C)[C@H](O)[C@@H](O)[C@@H](C)[C@H]1CC[C@H]2[C@@H]3CC(=O)C4C[C@@H](F)CC[C@]4(C)[C@H]3CC[C@]12C,VERO,MV/Brazil/001/91,plaque count,1 µM
Nc1ncnc2c1ccn2[C@@H]1O[C@H](CO)[C@@H](O)[C@H]1O,VERO,Niigata-1,plaque count,>0.64 µg/mL
NC(=O)c1ncn([C@@H]2O[C@H](CO)[C@@H](O)[C@H]2O)n1,CV-1,CC,cytopathic effect,20 µg/mL
CC[C@H]1O[C@@H](n2cc(F)c(=O)[nH]c2=O)[C@H](O)[C@@H]1O,VERO,Niigata-1,plaque count,>500 µg/mL
Nc1nc2c(ncn2CCOCP(=O)(O)O)c(=O)[nH]1,,Edmonston,cytopathic effect,>32 µg/mL
Nc1ncnc2c1ncn2[C@@H]1C=C[C@@H](O)[C@H]1O,VERO,Niigata-1,plaque count,8.5 µg/mL
CC[C@H](/C=C/[C@@H](C)[C@H]1CC[C@H]2[C@@H]3CC(=O)[C@@]4(Cl)C[C@@H](F)CC[C@]4(C)[C@H]3CC[C@]12C)C(C)C,VERO,MV/Brazil/001/91,plaque count,32 µM

The last 2 rows once more:

Nc1ncnc2c1ncn2[C@@H]1C=C[C@@H](O)[C@H]1O ; cell line: VERO ; strain: Niigata-1 ; method: plaque count ; value: 8.5 µg/mL
CC[C@H](/C=C/[C@@H](C)[C@H]1CC[C@H]2[C@@H]3CC(=O)[C@@]4(Cl)C[C@@H](F)CC[C@]4(C)[C@H]3CC[C@]12C)C(C)C ; cell line: VERO ; strain: MV/Brazil/001/91 ; method: plaque count ; value: 32 µM

Blank or dashed fields: not listed here. Conditions beyond the fields shown may differ between rows.